1 molecule from US20050123902A1, “Human papillomavirus inhibitors” (priority 2003, published 2005) can be followed below.

By UniProt entry, the sequences of proteins in these tests, tags left out.
UniProt P03120, whole entry: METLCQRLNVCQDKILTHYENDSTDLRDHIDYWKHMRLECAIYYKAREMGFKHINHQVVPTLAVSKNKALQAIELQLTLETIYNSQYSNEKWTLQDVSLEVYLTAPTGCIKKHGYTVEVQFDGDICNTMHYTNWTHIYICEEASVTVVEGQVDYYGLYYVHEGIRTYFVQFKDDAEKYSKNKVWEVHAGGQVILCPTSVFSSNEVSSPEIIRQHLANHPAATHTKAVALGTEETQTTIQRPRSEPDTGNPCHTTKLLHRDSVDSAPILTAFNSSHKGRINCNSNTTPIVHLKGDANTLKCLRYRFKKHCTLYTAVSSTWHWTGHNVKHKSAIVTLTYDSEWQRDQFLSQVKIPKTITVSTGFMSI

The experiment has as its target HPV-16 E2 protein (Human papillomavirus type 16, UniProt P03120). In words: Determination of dissociation constants by surface plasmon resonance (Biacore 3000, captured GST-E2 fusion). Particulars: read-out: dissociation constant, steady state model, PBST containing 2% (v/v) DMF. On the procedure:
Surface Plasmon Resonance Instrument. Surface plasmon resonance experiments were performed with a Biacore® 3000 Biosensor (Biacore AB, Uppsala, Sweden). To keep the instrument in good working condition, a series of washing steps were performed on a weekly basis. In addition to the prescribed maintenance washes, the fluidic system was primed three times in a row with the following reagents: 0.5% (w/v) SDS, 6 M urea, 1% (v/v) acetic acid, and 0.2 M NaHCO3. When not in use, a standby program injects water at a flow rate of 5 μL/minute to prevent salt build-up in the lines or integrated fluidic cartridge. Whenever running buffer was changed, the system was primed three times in order to equilibrate the sensor chip and the instrument.
Immobilization of anti-GST Antibody. A CM5 sensor chip was docked and the system was primed three times with filtered and degassed PBST containing 5% (v/v) DMF. Affinity purified and sterile filtered goat-anti-GST IgG (0.8 mg/mL in 150 mM NaCl) from the Biacore GST kit for fusion capture was diluted to 30 μg/mL in 10 mM sodium acetate, pH 5.0 (100 μL per immobilization). Two flow cells were activated with 1:1 NHS:EDC (N-hydroxysuccinimide:[…]) for 8 minutes at a flow rate of 5 μL/min using the “surface preparation: immobilization: amine coupling” wizard application. […]

In the case of `Cn1nnnc1SC[C@H]1C[C@@H](c2ccc(CO)cc2)O[C@@H](c2ccc(CN)cc2)O1`, the Kd turned out to be 1.7 nM.
